Reference: PMC6784148 (Toxins, 2019)

Test system: intestinal porcine epithelial cell line (IPEC-J2)
Experiment: Cell viability of IPEC-J2 after 48 h toxin treatment (sulforhodamine B assay)

CCC(C)C1NC(=O)/C(=C(/C)O)C1=O (stereo not drawn)
Cytotoxic effect on IPEC-J2 (in words) (48 h, SRB assay): slight decrease in viability | Viability after applying higher concentrations (IPEC-J2, 48 h): did not further decrease below 50% | Cell viability (IPEC-J2, 48 h, at 20 µM): 76.2% | Viability despite increased concentrations (IPEC-J2, 48 h, concentrations above 20 µM up to 150 µM): around 50% | Relative IC50 value (IPEC-J2, 48 h, µM value expressed in µg/kg): 4761 µg/kg | IC50 (read-out: Relative IC50 value, IPEC-J2, 48 h incubation, SRB assay, concentration reducing viability to 50% between top and bottom plateau): 20.9 µM
